A mixed list of measured activities; the numbers were collected in NIAID ChemDB.

All rows: cytotoxicity tests; cells: VERO; endpoint: CC50

CCn is the concentration with n% toxicity to the cells. Rows are shuffled and stem from different studies. Blank or dashed fields: not listed here.

SMILES	read by	value
CCCCS(=O)(=O)Nc1ccc2[nH]c(C(=O)NCc3ccc(Cl)cc3)c(C)c2c1	resazurin	>110 µM
COc1cccc([C@H](c2cc3cc(Br)ccc3nc2OC)[C@@](O)(CCN(C)C)c2ccc(C)nc2)c1OC		>10 µg/mL
Nc1nc2c(ncn2COC(CO)CO)c(=O)[nH]1		500 µM
CCCCS(=O)(=O)Nc1ccc2[nH]c(C(=O)NC(C)(C)c3ccccc3)c(C)c2c1	resazurin	>110 µM
Cc1ccccc1-c1cc(CN2CCN(C)CC2)c(C)n1-c1ccc(F)cc1		2 µg/mL
CSc1nsc(C2CCCCC2)c1C#N		50 µM
Cc1ccccc1-c1cc(CN2CCSCC2)c(C)n1-c1ccc(F)cc1		8 µg/mL
CCCCS(=O)(=O)Nc1ccc2[nH]c(C(=O)NCc3ccc(F)cc3)c(C)c2c1	resazurin	>120 µM
CCN(CC)CCCOc1c2occc2cc2ccc(=O)oc12		27.5 µg/mL
CCc1nc2ccc(C)cc2n1CCCNc1ccc(C)cc1	luminescence	31 µM
CC(C)O[C@@H]1[C@H](OC(C)C)[C@@H](COS(=O)(=O)NC(=O)O[C@@H]2C[C@@H](OC(=O)c3ccccc3)[C@H](OC(=O)c3ccccc3)[C@@H](COC(=O)c3ccccc3)O2)O[C@H]1n1ccc(=O)[nH]c1=O		250 µg/mL
Clc1ccc(SCCCCn2ccnc2)cc1	luminescence	40 µM
COc1ccc(-c2snc(SC)c2C#N)cc1		10 µM
COc1cccc([C@H](c2cc3cc(Br)ccc3nc2OC)[C@@](O)(CCN(C)C)c2ncccc2C)c1F		>10 µg/mL
Fc1ccc(/C(Cn2ccnc2)=N/OCc2cccc3ccccc23)cc1		6 µg/mL
CCCCCS(=O)(=O)Nc1ccc2[nH]c(C(=O)OCC)c(C)c2c1	resazurin	>140 µM
CCc1nc2ccc(C)cc2n1CCCNc1ccccc1	luminescence	>50 µM
CCCCS(=O)(=O)Nc1ccc2[nH]c(C(=O)NC(C)C)c(C)c2c1	resazurin	140 µM
Cc1cccc(-c2cc(CN3CCN(C)CC3)c(C)n2-c2ccc(F)cc2)c1		8 µg/mL
Fc1ccc(/C(Cn2ccnc2)=N/OCc2ccc(-c3ccccc3)cc2)cc1		1.5 µg/mL
OC[C@@H]1C[C@H](n2cnc3c(=S)nc[nH]c32)[C@@H](O)[C@H]1O		>100 µM
Clc1ccc(/C(Cn2ccnc2)=N/OCc2ccccc2)cc1		64 µg/mL
CCCCS(=O)(=O)Nc1ccc2[nH]c(C(=O)NC3CCCc4ccccc43)c(C)c2c1	resazurin	28.4 µM
Fc1ccc(/C(Cn2ccnc2)=N/OCc2ccccc2)cc1		8 µg/mL
Cc1c(C(=O)Nc2ccccc2)[n+](=O)c2cc(Cl)ccc2n1[O-]		>10 µg/mL
COc1ccc([C@](O)(CCN(C)C)[C@@H](c2cc3cc(C#N)ccc3nc2OC)c2cccc(OC)c2OC)cn1		>10 µg/mL
Cc1c(CN2CCN(C)CC2)cc(-c2ccccc2)n1-c1cccc2ccccc12		2 µg/mL
Clc1ccc(/C(Cn2ccnc2)=N\OCc2ccc(-c3ccccc3)cc2)c(Cl)c1		6 µg/mL
O=C(NS(=O)(=O)OC[C@H]1O[C@@H](n2ccc(=O)[nH]c2=O)[C@H](O)[C@@H]1O)O[C@H]1O[C@H](COC(=O)c2ccccc2)[C@@H](OC(=O)c2ccccc2)[C@H](OC(=O)c2ccccc2)[C@H]1OC(=O)c1ccccc1		192 µg/mL
c1ccc(OCCCCn2ccnc2)cc1	luminescence	>50 µM
Cc1c(CN2CCN(C)CC2)cc(-c2ccccc2Cl)n1-c1cccc2ccccc12		2 µg/mL
CCCCS(=O)(=O)Nc1ccc2[nH]c(C(=O)N3CCCC3)c(C)c2c1	resazurin	>140 µM
Cc1c(CN2CCSCC2)cc(-c2ccccc2F)n1-c1cccc2ccccc12		4 µg/mL
CCCCS(=O)(=O)Nc1ccc2[nH]c(C(=O)N(C)C)c(C)c2c1	resazurin	>150 µM
C#Cc1cn([C@H]2C[C@H](O)[C@@H](CO)O2)c(=O)[nH]c1=O		1.6 µM
CCCCCS(=O)(=O)Nc1ccc2[nH]c(C(=O)O)c(C)c2c1	resazurin	>150 µM
CCc1nc2ccc(C)cc2n1CCCCSc1ccccc1	luminescence	9.5 µM
Cc1c(C(=O)Nc2ccccc2)[n+](=O)c2ccccc2n1[O-]		1 µg/mL
Cc1c(CN2CCSCC2)cc(-c2cccc3ccccc23)n1-c1ccccc1		4 µg/mL
CC(=O)N[C@H]1[C@@H](OC(=O)NS(=O)(=O)OC[C@H]2O[C@@H](n3ccc(=O)[nH]c3=O)[C@H](OC(C)C)[C@@H]2OC(C)C)O[C@H](COC(C)=O)[C@@H](OC(C)=O)[C@@H]1OC(C)=O		100 µg/mL
C[C@@H]1CC[C@H]2C(C)(C)[C@H](O)CC[C@]2(C)C12Cc1c(O)cc(C=O)c(C=O)c1O2		24.3 µg/mL
CC(C)O[C@@H]1[C@H](OC(C)C)[C@@H](COS(=O)(=O)NC(=O)O[C@@H]2C[C@@H](OC(=O)c3ccccc3)C[C@@H](COC(=O)c3ccccc3)O2)O[C@H]1n1ccc(=O)[nH]c1=O		200 µg/mL
COc1cccc([C@H](c2cc3cc(C#N)ccc3nc2OC)[C@@](O)(CCN(C)C)c2cccc(C)n2)c1OC		>10 µg/mL
CC(=O)O[C@H]1C[C@H](n2cc(C)c(=O)[nH]c2=O)O[C@@H]1COS(=O)(=O)NC(=O)O[C@H]1O[C@H](COCc2ccccc2)[C@@H](OCc2ccccc2)[C@H](OCc2ccccc2)[C@H]1OCc1ccccc1		75 µg/mL
Clc1ccc(/C(Cn2ccnc2)=N\OC/C=C/c2ccccc2)cc1		6 µg/mL
Cc1c(CN2CCSCC2)cc(-c2ccccc2)n1-c1ccccc1F		8 µg/mL
CSc1nsc(-c2ccc(C(F)(F)F)cc2)c1C#N		14 µM
Fc1ccc(/C(Cn2ccnc2)=N/OC/C=C/c2ccccc2)cc1		12 µg/mL
N#Cc1c(-c2ccccc2)nsc1Cl		20 µM
c1ccc(CO/N=C(/Cn2ccnc2)c2ccccc2)cc1		1 µg/mL
CC(C)O[C@@H]1[C@H](OC(C)C)[C@@H](COCCCC2O[C@H](COC(=O)c3ccccc3)[C@@H](OC(=O)c3ccccc3)[C@H](OC(=O)c3ccccc3)[C@H]2OC(=O)c2ccccc2)O[C@H]1n1ccc(=O)[nH]c1=O		75 µg/mL

Again, the opening 8 rows:

SMILES	read by	value
CCCCS(=O)(=O)Nc1ccc2[nH]c(C(=O)NCc3ccc(Cl)cc3)c(C)c2c1	resazurin	>110 µM
COc1cccc([C@H](c2cc3cc(Br)ccc3nc2OC)[C@@](O)(CCN(C)C)c2ccc(C)nc2)c1OC		>10 µg/mL
Nc1nc2c(ncn2COC(CO)CO)c(=O)[nH]1		500 µM
CCCCS(=O)(=O)Nc1ccc2[nH]c(C(=O)NC(C)(C)c3ccccc3)c(C)c2c1	resazurin	>110 µM
Cc1ccccc1-c1cc(CN2CCN(C)CC2)c(C)n1-c1ccc(F)cc1		2 µg/mL
CSc1nsc(C2CCCCC2)c1C#N		50 µM
Cc1ccccc1-c1cc(CN2CCSCC2)c(C)n1-c1ccc(F)cc1		8 µg/mL
CCCCS(=O)(=O)Nc1ccc2[nH]c(C(=O)NCc3ccc(F)cc3)c(C)c2c1	resazurin	>120 µM